Results of unrelated studies side by side (data: NIAID ChemDB).

Common to all: toxicity to cultured cells; cells: C8166; measure: CC50

CCn: concentration that lowers growth or viability of the cells by n%. Blank or dashed fields: not listed here. Neighbouring rows are from separate reports.

structure	method	result
O=C(N[C@@H](CCCCNC(=O)c1c(O)cccc1C(=O)O)C(=O)OCc1ccccc1)OCc1ccccc1	XTT	>500 µM
CN1CCN(c2ccnc3nc(CN(C)Cc4ncccc4C4CC4)[nH]c23)CC1	MTT	>10 µM
COc1cc([C@@H]2c3cc(O)c(OC)cc3C(=O)[C@@H](C)[C@H]2C)ccc1O	MTT	87.1 µg/mL
Cc1ccc(C)c(C(Cl)S(=O)(=O)c2cc(C)cc[n+]2[O-])c1	-	1.4 µg/mL
COc1cc(C[C@@H](C)[C@@H](C)Cc2cc(O)c(OC)c(OC)c2)cc(O)c1OC	MTT	10.09 µg/mL
CS(=O)(=O)Oc1ccc(N=Nc2ccc(N=Nc3ccc(OS(C)(=O)=O)c4ncccc34)cc2)c2cccnc12	MTT	7.55 µg/mL
CC1(C)CC[C@]2(C(=O)O)CC[C@]3(C)C(=CCC4[C@@]5(C)CCC(=O)C(C)(C)C5[C@H](O)C[C@]43C)C2C1	MTT	155 µM
CCOP(=O)(N[C@@H](CC(C)C)C(=O)OC)OC[C@H]1O[C@@H](n2cc(C)c(=O)[nH]c2=O)C[C@@H]1N=[N+]=[N-]	-	>100 µM
C/C(=N\NC(=O)c1ccccc1)c1cn(S(=O)(=O)c2ccc(Cl)cc2)c2ccc(C#N)cc12	MTT	19.76 µg/mL
C=C(C)[C@@]12OC3(c4ccccc4)O[C@@H]1[C@@H]1[C@H](OC(C)=O)[C@@]4(C)O[C@@]5([C@@H]4OCc4ccccc4)[C@@H](OC(C)=O)[C@@H](C)C[C@H]5[C@@]1(O)[C@H](C)[C@@H]2O3	MTT	>0.2967 µM
Cc1ccc(C)c(CSc2c(Cl)ccc[n+]2[O-])c1	-	6.2 µg/mL
O=C(N/N=C/c1cn(S(=O)(=O)c2cccc([N+](=O)[O-])c2)c2ccccc12)c1ccccc1	MTT	27.09 µg/mL
COc1ccc(S(=O)(=O)Oc2ccc(N=Nc3ccc(N=Nc4ccc(OS(=O)(=O)c5ccc(OC)cc5)c5ncccc45)cc3)c3cccnc23)cc1	MTT	61.62 µg/mL
C=C(C)[C@@H]1CC[C@]2(C(=O)O)CC[C@]3(C)[C@H](CC[C@@H]4[C@@]5(C)CCC(=O)C(C)(C)[C@@H]5CC[C@]43C)[C@@H]12	MTT	30.66 µM
CCO[C@H]1OC[C@H](Cc2ccc(O)c(OC)c2)[C@H]1Cc1ccc(O)c(OC)c1	MTT	19.23 µg/mL
C=C(C)[C@@]12OC3(C)O[C@@H]1[C@@H]1[C@H](O)[C@@](C)(O)[C@@H](OCc4ccccc4)[C@@]4(O)[C@@H](C[C@H](C)[C@@H]4OC(C)=O)[C@@]1(O3)[C@H](C)[C@@H]2OCc1ccccc1	MTT	>0.289 µM
CCCCCCCCCCCCCCCCCCOC(=O)/C=C/c1ccc(O)c(O)c1	MTT	86.14 µg/mL
C=C(C)[C@@H]1CC[C@]2(CO)CC[C@]3(C)[C@H](CC[C@@H]4[C@@]5(C)CC[C@H](O)C(C)(C)[C@@H]5CC[C@]43C)[C@@H]12	MTT	316 µM
CN(Cc1ncccc1/C=C\C#N)Cc1nc2ccccc2n1Cc1ccccc1	MTT	>10 µM
Cc1ccc(S(=O)(=O)n2cc(/C=N/NC(=O)c3ccccc3)c3ccc(C)cc32)cc1	MTT	41.74 µg/mL
CC(=O)O[C@@]12[C@H](OC(=O)/C=C/c3ccc(F)cc3)[C@@H](C)[C@@]3(O)[C@@H](C=C(CO)C[C@]4(O)C(=O)C(C)=C[C@@H]34)[C@@H]1C2(C)C	MTT	107 µM
C=C(C)[C@@]12OC3(C)O[C@@H]1[C@@H]1[C@H](O)[C@@](C)(O)[C@@H](O)[C@@]4(O)[C@@H](C=C(C)[C@@H]4O)[C@@]1(O3)[C@H](C)[C@@H]2OCc1ccccc1	MTT	0.1093 µM
CCOP(=O)(N[C@@H](C)C(=O)OC)OC[C@H]1O[C@@H](n2cc(C)c(=O)[nH]c2=O)C[C@@H]1N=[N+]=[N-]	-	>100 µM
C=C1CC[C@@H]2[C@](C)(CO)[C@H](O)CC[C@@]2(C)[C@@H]1CC(OC(=O)c1ccc([N+](=O)[O-])cc1)C1CCOC1=O	MTT	4.726 µM
CN1CCN(c2ccnc3nc(CN(CCCCN)Cc4ncccc4-n4ccc5ccccc54)[nH]c23)CC1	MTT	>10 µM
COC(=O)CC(O)(CC(=O)O)C(=O)NCCCC[C@H](NC(=O)OCc1ccccc1)C(=O)N[C@@H](CCCCNC(=O)C(O)(CC(=O)O)CC(=O)OC)C(=O)OCc1ccccc1	XTT	>250 µM
CC(=O)Nc1ccc(S(=O)(=O)n2cc(/C=N/NC(=O)c3ccccc3)c3ccccc32)cc1	MTT	18.31 µg/mL
CC1=C[C@H]2[C@@]3(O)[C@H](C)[C@@H](OC(=O)CCCCC4SCC5NC(=O)NC54)[C@]4(O)[C@H]([C@@H]3C=C(CO)C[C@]2(O)C1=O)C4(C)C	MTT	>200 µM
COC(=O)[C@H](C)NP(=O)(N[C@@H](C)C(=O)OC)OC[C@H]1O[C@@H](n2cc(C)c(=O)[nH]c2=O)C[C@@H]1N=[N+]=[N-]	-	>100 µM
CC/C(=N\NC(=O)c1ccccc1)c1cn(S(=O)(=O)c2ccccc2)c2ccccc12	MTT	>200 µg/mL
CC(C)=CCC/C(C)=C/CC/C(C)=C/CC/C(C)=C/Cc1cc(O)cc2c1OC(=O)C2=C(C)C	MTT	68.69 µM
O=S(=O)(Oc1ccc(N=Nc2ccc(N=Nc3ccc(OS(=O)(=O)c4ccc(Cl)cc4)c4ncccc34)cc2)c2cccnc12)c1ccc(Cl)cc1	MTT	98.31 µg/mL
CCOC(=O)COP(=O)([O-])OCC[NH2+]C	-	>100 µM
COc1ccc(C)cc1CS(=O)(=O)c1cccc[n+]1[O-]	-	59 µg/mL
COc1cc([C@H]2OC[C@@H]3[C@H]2CO[C@@H]3c2cc(OC)c(O)c(OC)c2)cc(OC)c1O	MTT	>200 µg/mL
CCCCCCCCCCCCCCCCCCOP(=O)([O-])OCC[NH2+]C	-	>100 µM
C=C1CC[C@@H]2[C@](C)(CO)[C@H](O)CC[C@@]2(C)[C@@H]1CCC1C(=O)NCC1O	MTT	>569 µM
Cc1ccc(C)c(CS(=O)(=O)c2ccccn2)c1	-	30 µg/mL
COc1cc([C@H]2c3cc(O)c(OC)cc3C[C@@H](CO)[C@@H]2CO)ccc1O	MTT	>200 µg/mL
Cc1cc(C)cc(S(=O)(=O)c2c(C(=O)NCC(=O)NN)[nH]c3ccc(Cl)cc23)c1	MTT	≥200 µM
Cc1ccc(S(=O)(=O)Oc2ccc(N=Nc3ccc(N=Nc4ccc(OS(=O)(=O)c5ccc(C)cc5)c5ncccc45)cc3)c3cccnc23)cc1	MTT	83.66 µg/mL
O=[N+]([O-])c1ccc[n+]([O-])c1SCc1ccccc1	-	29 µg/mL
CC[C@H](C)[C@H](NC(=O)[C@@H](Cc1ccccc1)NP(=O)(OC)C(Cc1ccccc1)NC(=O)OCc1ccccc1)C(=O)NCC(C)C	-	2 µM
CN(Cc1nc2ccccc2[nH]1)Cc1ncccc1CCCNS(C)(=O)=O	MTT	>10 µM
C/C(=N\NC(=O)c1ccccc1)c1cn(S(=O)(=O)c2ccc(Cl)cc2)c2ccc([N+](=O)[O-])cc12	MTT	>200 µg/mL
CN(Cc1ncccc1/C=C/C#N)Cc1nc2ccccc2n1Cc1ccccc1	MTT	>10 µM
CC[C@H](C)[C@H](NC(=O)[C@@H]1CCCN1P(=O)(OC)C(CC1CCCCC1)NC(=O)[C@@H](CC(N)=O)NC(=O)c1ccc2ccccc2n1)C(=O)NCC(C)C	-	20 µM
C=C1CC[C@@H]2[C@](C)(CO)[C@H](O)CC[C@@]2(C)[C@@H]1CC(OC(C)=O)C1CCOC1=O	MTT	5.971 µM
O=C(O)CCC(=O)NCCCC[C@H](NC(=O)OCc1ccccc1)C(=O)OCc1ccccc1	XTT	250 µM
COc1cc(C[C@H]2CO[C@H](c3ccc(O[C@@H]4O[C@H](COC(C)=O)[C@@H](O)[C@H](O)[C@H]4O)c(OC)c3)[C@H]2CO)ccc1O	MTT	>200 µg/mL
CCCC(=O)O[C@@]12[C@H](OC(=O)/C=C/c3ccc(O)c(OC)c3)[C@@H](C)[C@@]3(O)[C@@H](C=C(CO)C[C@]4(O)C(=O)C(C)=C[C@@H]34)[C@@H]1C2(C)C	MTT	77.84 µM
C=C(C)[C@@]1(O)[C@H](OC(C)=O)[C@@H]2[C@H](OCc3ccccc3)C3(C)O[C@@]4([C@@H]3OCc3ccccc3)[C@@H](OC(C)=O)[C@@H](C)C[C@H]4[C@@]2(O)[C@H](C)[C@@H]1OCc1ccccc1	MTT	>0.2512 µM
COc1ccc(S(=O)(=O)n2cc(/C=N/NC(=O)c3ccccc3)c3ccccc32)cc1	MTT	192 µg/mL
CC(=O)O[C@@]12[C@H](OC(=O)CCCCCBr)[C@@H](C)[C@@]3(O)[C@@H](C=C(CO)C[C@]4(O)C(=O)C(C)=C[C@@H]34)[C@@H]1C2(C)C	MTT	>200 µM
CN(Cc1ncccc1CCC#N)Cc1nccc2ccccc12	MTT	10 µM
C=C1CC[C@H]2[C@@](C)(CC/C(=N\O)[C@@]2(C)CO)[C@@H]1/C=C/C1=CCOC1=O	MTT	>579 µM
COC(=O)[C@H](Cc1ccccc1)NP(=O)(N[C@@H](Cc1ccccc1)C(=O)OC)OC[C@H]1O[C@@H](n2cc(C)c(=O)[nH]c2=O)C[C@@H]1N=[N+]=[N-]	-	>100 µM
COc1ccc(S(=O)(=O)n2cc(/C(C)=N/NC(=O)c3ccccc3)c3ccccc32)cc1	MTT	1.3 µg/mL
CC[C@H](C)[C@H](NC(=O)[C@@H](Cc1ccccc1)NP(=O)(OC)C(Cc1ccccc1)NC(=O)[C@@H](CC(N)=O)NC(=O)c1ccc2ccccc2n1)C(=O)NCC(C)C	-	45 µM
COc1cc([C@H]2OC[C@H]3[C@@H]2CO[C@H]3c2cc(OC)c(O)c(OC)c2)cc(OC)c1O	MTT	>200 µg/mL

Repeating the first 8 entries:

structure,method,result
O=C(N[C@@H](CCCCNC(=O)c1c(O)cccc1C(=O)O)C(=O)OCc1ccccc1)OCc1ccccc1,XTT,>500 µM
CN1CCN(c2ccnc3nc(CN(C)Cc4ncccc4C4CC4)[nH]c23)CC1,MTT,>10 µM
COc1cc([C@@H]2c3cc(O)c(OC)cc3C(=O)[C@@H](C)[C@H]2C)ccc1O,MTT,87.1 µg/mL
Cc1ccc(C)c(C(Cl)S(=O)(=O)c2cc(C)cc[n+]2[O-])c1,-,1.4 µg/mL
COc1cc(C[C@@H](C)[C@@H](C)Cc2cc(O)c(OC)c(OC)c2)cc(O)c1OC,MTT,10.09 µg/mL
CS(=O)(=O)Oc1ccc(N=Nc2ccc(N=Nc3ccc(OS(C)(=O)=O)c4ncccc34)cc2)c2cccnc12,MTT,7.55 µg/mL
CC1(C)CC[C@]2(C(=O)O)CC[C@]3(C)C(=CCC4[C@@]5(C)CCC(=O)C(C)(C)C5[C@H](O)C[C@]43C)C2C1,MTT,155 µM
CCOP(=O)(N[C@@H](CC(C)C)C(=O)OC)OC[C@H]1O[C@@H](n2cc(C)c(=O)[nH]c2=O)C[C@@H]1N=[N+]=[N-],-,>100 µM